Results of unrelated studies side by side (data: NIAID ChemDB).

Common to all: whole-cell or culture tests; agent: HIV-1; endpoint: EC50

Conditions beyond the fields shown may differ between rows. An empty or dashed field is not shown. ECn is the concentration giving n% inhibition of infection, replication or growth.

smiles | strain | read by | cell line | mutations | result
Cc1cn([C@H]2C[C@H](N=[N+]=[N-])[C@@H](CO)O2)c(=O)[nH]c1=O | IIIB | ATP | MT-2 | ATV-P36 atazanavir-resistant mutant | 0.504 µM
N#Cc1ccc(S(=O)(=O)c2cccc(N)c2C#N)cc1 | IIIB | cytopathic effect | MT-4 | - | 2.4 µM
Cc1occc1C(=S)Nc1ccc(Cl)c(/C=N/OC(C)(C)C)c1 | UC781-R (RT-Y181C) | cytopathic effect / XTT | CEM + CEM-SS | RT-Y181C | 0.9 µM
O=c1[nH]cnc2c1ncn2[C@H]1CC[C@@H](CO)O1 | RT P119S V179D L214F | p24 | MT-2 | RT-P119S V179D L214F | 1.6 µM
C[C@@H](Cn1cnc2c(N)ncnc21)OCP(=O)(O)O | HE | syncytia | CEM | - | ≥100 µM
Cc1ccnc2c1NC(=O)c1cccnc1N2C1CC1 | HXB2 | β-galactosidase | MAGI (CCR5) + MAGI | RT-Y181C | 3.8 µM
O=c1[nH]cnc2c1ncn2[C@H]1CC[C@@H](CO)O1 | IIIB TIBO R82913 STR-B22 (RT L100I Y188H) | syncytia | CEM | RT-L100I Y188H | 8 µM
O=C1N(Cc2ccc(CO)cc2)[C@H](Cc2ccccc2)[C@H](O)[C@@H](O)[C@@H](Cc2ccccc2)N1Cc1ccc(CO)cc1 | A018A PRE-AZT | virus yield | MT-2 | - | <0.14 µM
Fc1cccc(F)c1C1SCc2nc3ccccc3n21 | RF | RT activity | H9 | - | 2.26 µM
O=c1[nH]cnc2c1ncn2[C@@H]1O[C@H](CO)C[C@@H]1F | L214F(RT-L214F) | p24 | MT-2 | RT-L214F | 16 µM
Cc1ccnc2c1NC(=O)c1cccnc1N2C1CC1 | IIIB | cytopathic effect / XTT | CEMx174 + CEM | - | 0.1 µM
Cc1cn([C@H]2C[C@H](N=[N+]=[N-])[C@@H](CO)O2)c(=O)[nH]c1=O | NRTI resistant | luciferase | HeLa | RT-M41L E44D D67N T69D V118I L210W T215Y | 6.38 µM
Nc1ncnc2c1ncn2CCOCP(=O)(O)O | IIIB TIBO R82913 STR-1 (RT L100I Y181C) | syncytia | CEM | RT-L100I Y181C | 25 µM
Cn1c2ccccc2c2c1cc(C#N)c(=O)n2-c1ccc([N+](=O)[O-])cc1 | NNRTI-resistant | luciferase | HeLa | RT-G190S | 0.039 µM
C[C@H](Cn1cnc2c(N)ncnc21)OCP(=O)(O)O | IIIB | cytopathic effect / trypan blue | MT-4 | - | 5.9 µM
CCN(c1nc(F)ccc1NC(C)(C)C)C1CCN(C(=O)c2cc3cc(NC(=O)N4CCN(C)CC4)ccc3[nH]2)CC1 | IIIB | p24 / ELISA | MT-2 | D437N L441P | 0.0261 µM
Cc1cc(O)cc(S(=O)(=O)c2cccc(N)c2C#N)c1 | - | β-galactosidase | HeLa + HELA CD4+ | RT-Y188C | 0.4 µM
Cc1cn([C@H]2C=C[C@@H](CO)O2)c(=O)[nH]c1=O | HXB2 | β-galactosidase | MAGI (CCR5) + MAGI | RT-Y181C | 5.2 µM
Nc1ccn([C@H]2CC[C@@H](CO)O2)c(=O)n1 | BCF11 | - | PBMC | RT-A98G K103R | 0.05 µM
CC(C)=CCN1Cc2cc(Cl)cc3[nH]c(=S)n(c23)C[C@@H]1C | HXB2 | plaque count | HT4 + HT4 LacZ-1 | - | 0.11 µM
O=C(O)P(=O)(O)O | 8420 CLADE D CLADE D | p24 | PBMC | - | 48.7 µM
COc1cc(C(F)(F)F)cc(S(=O)(=O)c2cccc(N)c2C#N)c1 | - | β-galactosidase | HeLa + HELA CD4+ | RT-V108I Y181C | 14 µM
Cc1cn([C@H]2C=C[C@@H](CO)O2)c(=O)[nH]c1=O | Recombinant | luciferase | HeLa | RT-M41L V118I M184V | 1.34 µM
C/C=C/CSc1cc(NC(=S)c2ccsc2C)ccc1Cl | UC040-R (RT-Y181C) | cytopathic effect / XTT | CEM + CEM-SS | RT-Y181C | >2 µM
CC(C)CN(C[C@@H](O)[C@H](Cc1ccccc1)NC(=O)[C@H](CC(N)=O)NC(=O)c1ccc2ccccc2n1)C(=O)NC(C)(C)C | NL4-3 | p24 | MT-4 | PR-L63P V82T I84V | <1.5 µM
Cc1cn([C@H]2C[C@H](N=[N+]=[N-])[C@@H](CO)O2)c(=O)[nH]c1=O | M184V(RT-M184V) | p24 | MT-2 | RT-M184V | 0.009 µM
CCn1c(=O)c(C)cn([C@@H]2O[C@H](CO[Si](C)(C)C(C)(C)C)C3(OS(=O)(=O)C=C3N)[C@H]2O[Si](C)(C)C(C)(C)C)c1=O | IIIB TIBO R82913 STR-B02 (RT L100I E138K) | syncytia | CEM | RT-L100I E138K | >50 µM
O=C1N(Cc2ccc(CO)cc2)[C@H](Cc2ccccc2)[C@H](O)[C@@H](O)[C@@H](Cc2ccccc2)N1Cc1ccc(CO)cc1 | NL4-3 | p24 | MT-4 | PR-L10R M46I L63P V82T I84V | <3 µM
Cc1ccnc2c1NC(=O)c1cccnc1N2C1CC1 | IIIB TSAO-T(RT-E138K) | syncytia | CEM | RT-E138K | 0.02 µM
Cc1cc(Br)cc(S(=O)(=O)c2cccc(N)c2C#N)c1 | - | β-galactosidase | HeLa + HELA CD4+ | RT-Y181C | 14 µM
CC(C)(C)NC(=O)[C@@H]1C[C@@H]2CCCC[C@@H]2CN1C[C@@H](O)[C@H](Cc1ccccc1)NC(=O)[C@H](CC(N)=O)NC(=O)c1ccc2ccccc2n1 | BCF02 | - | PBMC | PR-L10V K20C M36I L63T I64V A71V | 0.0132 µM
Cc1cc(Cl)cc(S(=O)(=O)c2cccc(N)c2C#N)c1 | - | β-galactosidase | HeLa + HELA CD4+ | RT-K103N | 0.97 µM
CCOCn1c(Cc2cc(C)cc(C)c2)c(CC)c(=O)[nH]c1=O | IIIB TSAO-T(RT-E138K) | syncytia | CEM | RT-E138K | 0.07 µM
CCOP(=O)(COc1ccc(C[C@H](NC(=O)O[C@H]2CO[C@H]3OCC[C@H]32)[C@H](O)CN(CC(C)C)S(=O)(=O)c2ccc(OC)cc2)cc1)OCC | IIIB | p24 / ELISA | MT-2 | K112M K113E V128I M200I H219P I401T R409K D437N L441P R41K | 0.01141 µM
CCCN(C)C(=O)Oc1nsnc1-c1c(Cl)ccc(N)c1Cl | IIIB | MTT | MAGI | RT-V189I T240I | >10 µM
Cc1ccnc2c1NC(=O)c1cccnc1N2C1CC1 | 3TC-resistant (RT M184V) M184V | β-galactosidase | MAGI | RT-M184V | 0.064 µM
Cc1cn([C@H]2C[C@H](N=[N+]=[N-])[C@@H](CO)O2)c(=O)[nH]c1=O | BCF08 | - | PBMC | RT-A98G Y181C | <0.01 µM
Nc1ncnc2c1ncn2CCOCP(=O)(O)O | HXB2 | p24 | MT-2 | - | 1.4 µM

Again, the opening 3 rows:

smiles,strain,read by,cell line,mutations,result
Cc1cn([C@H]2C[C@H](N=[N+]=[N-])[C@@H](CO)O2)c(=O)[nH]c1=O,IIIB,ATP,MT-2,ATV-P36 atazanavir-resistant mutant,0.504 µM
N#Cc1ccc(S(=O)(=O)c2cccc(N)c2C#N)cc1,IIIB,cytopathic effect,MT-4,-,2.4 µM
Cc1occc1C(=S)Nc1ccc(Cl)c(/C=N/OC(C)(C)C)c1,UC781-R (RT-Y181C),cytopathic effect / XTT,CEM + CEM-SS,RT-Y181C,0.9 µM